According to article PMC8026907:
For at least one entry, the source does not settle the construct or the ends of the probe. At least one verdict rests on a figure or table, not on a statement of the authors. Where a protein sequence is shown, tags need not be part of it.

These sequences were tested against T1, CRP-MTB (cAMP receptor protein, wild type) (Mycobacterium tuberculosis) (UniProt P9WMH3) (assay: EMSA). Details: recombinant protein.
T1 sequence (looked up, limits assumed): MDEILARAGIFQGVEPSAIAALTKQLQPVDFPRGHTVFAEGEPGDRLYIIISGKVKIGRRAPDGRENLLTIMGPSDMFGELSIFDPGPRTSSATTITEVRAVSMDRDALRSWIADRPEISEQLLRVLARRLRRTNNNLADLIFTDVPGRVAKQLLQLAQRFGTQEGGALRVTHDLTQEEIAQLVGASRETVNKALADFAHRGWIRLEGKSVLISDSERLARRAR

| Sequence | binding result |
| --- | --- |
| TAGTGTGAACAAGCTCACATGC (double strand) [SerC promoter 22-bp (EMSA)] | binds |
| CGTAGTGTGAACAAGCTCACATGCAA (double strand) [SerC promoter 26-bp (EMSA)] | binds |
| GTAGTGTGAACAAGCTCACATGCA (double strand) [SerC promoter 24-bp (EMSA)] | binds |
